Pooled drug test results. Numbers come from NIAID ChemDB, via PubChem.

All rows: whole-cell or culture tests; agent: Mycobacterium tuberculosis

Percent inhibition refers to the dose given; in toxicity tests it is the harm to the cells. Blank or dashed fields: not listed here. Lines come from different laboratories, so protocols vary. MIC bound: limit read from a one-dose screen. ECn is the concentration giving n% inhibition of infection, replication or growth. A number after MIC or MFC names an inhibition level or a share of isolates.

smiles | conditions | cells | strain or isolate | dose | method | endpoint | changes | value
S=c1ssc2ccccc12 |  |  | H37Rv | 12.5 µg/mL | BACTEC | inhibition |  | 15%
C[C@H]1COc2c(N3CCN(C)CC3)c(F)cc3c(=O)c(C(=O)O)cn1c23 |  |  | RIF-R1 |  | resazurin | MIC | rpoB mutant rifampicin-resistant | 0.37 µg/mL
c1ccc2c(c1)Cc1cc(N=C3CCC(=Nc4ccc5c(c4)Cc4ccccc4-5)CC3)ccc1-2 |  |  | H37Rv |  | BACTEC | MIC bound |  | >12.5 µg/mL
Cc1cc(N/N=C/c2ccccc2O)c2c(C)cccc2n1 |  |  | H37Rv |  |  | MIC |  | 10 µg/mL
CC(C)C[C@H]1NC(=O)[C@H](C)NC(=O)[C@H](Cc2c[nH]c3ccccc23)NC(=O)[C@@H](CCCN)NC(=O)[C@H](CC(N)=O)NC(=O)[C@H](C(C)C)NC1=O |  |  | H37Rv |  | broth dilution / resazurin | MIC100 |  | >80 µM
C[C@@H]1C[C@H]2OC(=O)[C@@]3(C)CCC[C@@](C)([C@@H]23)[C@@]1(O)CCc1ccoc1 |  |  | H37Rv |  | BACTEC | MIC |  | ≥128 µg/mL
CN(CC1CCCCC1)C1CCN(c2nc(=O)c3cc(C(F)(F)F)cc([N+](=O)[O-])c3s2)C1 |  |  | 16892 clinical isolate |  | resazurin | MIC90 |  | 0.016 µg/mL
S=C(Nc1ccccc1)c1cccc(Br)c1 |  |  | H37Rv |  |  | MIC |  | 61.9 µM
CCOc1cc(/C=N/NC(=O)C(=O)N/N=C/c2ccc(O)c(OCC)c2)ccc1O |  |  | H37Rv |  | BACTEC | MIC bound |  | >12.5 µg/mL
S=C(Nc1ccc(C2CCCCC2)cc1)c1ccccc1 |  |  | H37Rv |  |  | MIC |  | 31 µM
CN(C)CCNc1cc(C(F)(F)F)nc2c(C(F)(F)F)cccc12 |  |  |  |  |  | MIC |  | 31 µM
CC(C)=CCOc1c2ccoc2cc2oc(=O)ccc12 |  |  | H37Rv clinical isolate CRY2 |  | resazurin | MIC100 | Isoniazid-resistant | 100 µg/mL
Cc1cc(N/N=C/c2ccccc2O)c2cccc(C)c2n1 |  |  | H37Rv |  |  | MIC |  | 10 µg/mL
Cc1[nH]n(-c2ccccc2)c(=O)c1N=Nc1ccc(-c2n[nH]c(=S)n2C)cc1 |  |  | H37Rv |  |  | EC50 |  | >6.25 µg/mL
CC1(C)OC2C3COc4nc5c(N)ncnc5n4C(O3)C2O1 |  |  | H37Rv | 6.26 µg/mL | resazurin | inhibition |  | -6%
ONc1cc(C(F)(F)F)nc2c(C(F)(F)F)cccc12 |  |  |  |  |  | MIC |  | >128 µM
NNC(=O)c1nc2ccccc2s1 |  |  | H37Rv | 12.5 µg/mL | BACTEC | inhibition |  | 28%
COc1ccc2c(=O)n(-c3cccc(F)c3)c(=O)oc2c1 |  |  | CNCTC MY331/88 |  |  | MIC |  | 16 µM
O=C(N/N=C/c1ccco1)c1ccc(OCc2nc3ccccc3[nH]2)cc1 |  |  | H37Rv | 12.5 µg/mL | BACTEC | inhibition |  | 52%
CCSc1nnnn1-c1ccc(C)cc1 |  |  | H37Rv |  |  | MIC |  | 500 µM
CCON=C1CN(c2nc(=O)c3cc(C(F)(F)F)cc([N+](=O)[O-])c3s2)C1 |  |  | H37Rv |  | resazurin | MIC90 |  | <0.016 µg/mL
C=C1CCC2C(C)(C)CCC[C@@]2(C)[C@@H]1CC/C(C)=C/COC(C)=O |  |  | H37Rv | 6.25 µg/mL | resazurin | inhibition |  | 29%
Cc1cccc(-n2nnnc2SC(C)C)c1 |  |  | H37Rv |  |  | MIC |  | 250 µM
C/C1=C\[C@H](C)C[C@H](C)OC(=O)C[C@H](c2ccc(O)cc2)NC(=O)[C@@H](Cc2c(Br)[nH]c3ccccc23)N(C)C(=O)[C@H](C)NC(=O)[C@H](C)C1 |  |  | H37Rv | 12.5 µg/mL | BACTEC | inhibition |  | -40%
CC[C@@H](C)[C@@H]1NC(=O)[C@@H](CC(C)C)NC(=O)[C@H](CC(C)C)NC(=O)[C@H](Cc2c[nH]c3ccccc23)NC(=O)[C@@H](CCCN)NC(=O)[C@H](COC(C)(C)C)NC1=O |  |  | H37Rv |  | broth dilution / resazurin | MIC100 |  | >40 µM
c1ccc2c(c1)ccc1c2nc2c3ccccc3[nH]n12 |  |  | H37Rv | 12.5 µg/mL | BACTEC | inhibition |  | 100%
S=C(Nc1ccc(Cl)c(Cl)c1)c1cccc(Br)c1 |  |  | H37Rv |  |  | MIC |  | 31 µM
N/C(=N\OC(=O)Nc1ccc(CSc2ccc(Cl)cc2)o1)c1ccccn1 |  |  | H37Rv |  | BACTEC | MIC bound |  | >12.5 µg/mL
CCOC(=O)c1ccc(-n2c(=O)oc3ccc(Br)cc3c2=O)cc1 |  |  | CNCTC MY331/88 |  |  | MIC |  | 4 µM
C=CCNC(=S)Nc1ccc(-c2nnc(SCc3ccc(Cl)cc3Cl)n2-c2ccccc2)cc1 |  |  | H37Rv |  |  | MIC |  | 6.25 µg/mL
CO/N=C(/C(=O)N[C@@H]1C(=O)N2C(C(=O)[O-])=C(C[N+]3(C)CCCC3)CS[C@H]12)c1csc(N)n1 |  |  | 13 strains | 8 µg/mL |  | inhibition |  | 0%
Cc1cc(N/N=C/c2ccccc2[N+](=O)[O-])c2cccc(C)c2n1 |  |  | H37Rv |  |  | MIC |  | 10 µg/mL
O=C1C=C(N2CCOCC2)c2ccccc2C1=O |  |  | H37Rv |  | resazurin | MIC bound |  | >6.25 µg/mL
Cc1[nH]n(-c2ccc([N+](=O)[O-])cc2)c(=O)c1N=Nc1ccc(-c2n[nH]c(=S)o2)cc1 |  |  | H37Rv | 6.25 µg/mL |  | inhibition |  | 0%
O/N=C\c1cc(C(F)(F)F)nc2c(C(F)(F)F)cccc12 |  |  |  |  |  | MIC |  | >128 µM
CC(C)C[C@@H]1NC(=O)[C@H](Cc2c[nH]c3ccccc23)NC(=O)[C@@H](CCCN)NC(=O)C(CC(N)=O)N(C)C(=O)[C@H](C(C)C)NC(=O)[C@@H](CC(C)C)N(C)C1=O |  |  | H37Rv |  | broth dilution / resazurin | MIC100 |  | >80 µM
CCCCCCSC1=C(SCCCCCC)C(=O)c2[nH]cnc2C1=O |  |  | H37Rv | 12.5 µg/mL | BACTEC | inhibition |  | 31%
CC(=O)/C(N=Nc1ccc(C(=O)N/N=C/c2ccc([N+](=O)[O-])o2)cc1)=C(/O)c1ccccc1 |  |  | H37Rv |  |  | MIC |  | <12.5 µg/mL
NC1CN(c2c(F)cc3c(=O)c(C(=O)O)cn(C4CC4)c3c2Cl)CC12CC2 |  |  | H37Rv (RFP-susceptible) |  |  | MIC |  | 0.1 µg/mL
CO[C@H]1/C=C/O[C@@]2(C)Oc3c(C)c(O)c4c(O)c(c5c(c4c3C2=O)NC2(CCN(CC(C)C)CC2)N=5)=NC(=O)/C(C)=C\C=C\[C@H](C)[C@H](O)[C@@H](C)[C@@H](O)[C@@H](C)[C@H](OC(C)=O)[C@@H]1C |  |  | 1 isolates |  |  | MIC |  | 5 µg/mL
CCCSc1nnnn1-c1cccc(C)c1 |  |  | H37Rv |  |  | MIC |  | 500 µM
CN(CC1CCCCC1)C1CCN(c2nc(=O)c3cc(C(F)(F)F)cc([N+](=O)[O-])c3s2)CC1 |  |  | H37Rv |  | resazurin | MIC90 |  | 0.051 µg/mL
CCCSc1nnnn1-c1c(C)cc(C)cc1C |  |  | H37Rv |  |  | MIC |  | 250 µM
CC(=O)N[C@@H]1[C@H](O[C@H]2[C@H](O[C@H]3[C@H](O)[C@@H](O)[C@H](N=C(N)N)[C@@H](O)[C@@H]3N=C(N)N)O[C@@H](C)[C@]2(O)CO)O[C@@H](CO)[C@H](O)[C@H]1O |  |  | 666 |  |  | MIC |  | 1.56 µg/mL
CNc1cc(F)cc2cc3[nH]c(-c4ccc(C(=O)O)cc4CN(C)C4CCCCC4)cc3nc12 |  |  | H37Rv |  | visual reading / absorbance | MBC |  | 8 µg/mL
CON=C1CCN(c2nc(=O)c3cc(C(F)(F)F)cc([N+](=O)[O-])c3s2)CC1 |  |  | 16802 clinical isolate |  | resazurin | MIC90 |  | 0.016 µg/mL
CC(C)C[C@@H]1NC(=O)[C@H](Cc2c[nH]c3ccccc23)NC(=O)[C@@H](CCCN)NC(=O)[C@H](CC(N)=O)NC(=O)[C@H](C(C)C)NC(=O)[C@@H](Cc2ccc(Cl)cc2)NC1=O |  |  | H37Rv |  | broth dilution / resazurin | MIC100 |  | 1.9 µM
COC/C=C(\C)CC/C=C(\C)CC/C=C(\C)CCC=C(C)C |  |  | H37Rv | 6.25 µg/mL | resazurin | inhibition |  | 6%
CC(C)(C)O/N=C/c1cc(NC(=S)c2ccsc2)ccc1Cl |  |  | H37Rv | 12.5 µg/mL | BACTEC | inhibition |  | 98%
O=c1oc2ccc(Cl)cc2c(=O)n1-c1cccc([N+](=O)[O-])c1 |  |  | CNCTC MY331/88 |  |  | MIC |  | 8 µM
NNCc1c(C(=O)O)oc2ccccc12 |  |  | H37Rv |  | BACTEC | MIC bound |  | ≤12.5 µg/mL
CC(C)=CCC/C(C)=C/CO |  |  | H37Rv |  | resazurin | MIC |  | 64 µg/mL
NC(=S)c1cnccn1 |  |  | KK11-20 |  |  | MBC |  | 100 µg/mL
S=C(Nc1ccc(Cl)cc1)c1ccccc1 |  |  | H37Rv |  |  | MIC |  | 61.9 µM
CC1CCN(C(=S)S)CC1.CC1CCNCC1 |  | VERO | H37Rv |  |  | MIC |  | 1.6 µg/mL
CC(C)C[C@@H]1NC(=O)[C@H](Cc2c[nH]c3ccccc23)NC(=O)[C@@H](CCCN)NC(=O)[C@H](CC(N)=O)NC(=O)[C@H](C(C)C)NC(=O)[C@@H](C)NC1=O |  |  | H37Rv |  | broth dilution / resazurin | MIC100 |  | >80 µM
CC(=O)CN[C@@H]1[C@H](O[C@H]2[C@H](O[C@H]3[C@H](O)[C@@H](O)[C@H](N=C(N)N)[C@@H](O)[C@@H]3N=C(N)N)O[C@@H](C)[C@]2(O)COC(c2ccccc2)(c2ccccc2)c2ccccc2)O[C@@H](CO)[C@H](O)[C@H]1O |  |  | 666 |  |  | MIC |  | 50 µg/mL
C[C@@H]1Oc2nc([N+](=O)[O-])cn2C[C@@H]1OCc1ccc(OC(F)(F)F)cc1 |  |  | H37Rv-5A1 |  | absorbance | MIC |  | >100 µM
CSCC[C@@H]1NC(=O)[C@@H](CC(C)C)NC(=O)[C@H](CC(C)C)NC(=O)[C@H](Cc2c[nH]c3ccccc23)NC(=O)[C@@H](CCCN)NC(=O)[C@H](CC(N)=O)NC1=O |  |  | H37Rv |  | broth dilution / resazurin | MIC100 |  | >80 µM
CC(C)=CCC/C(C)=C/CC/C(C)=C/CC/C(C)=C/CO |  |  | H37Rv |  | resazurin | MIC |  | 1.56 µg/mL
CCOC(=O)C1=C(O)C(=O)N(Cc2ccccc2)C1 |  |  | H37Rv |  | resazurin | MIC bound |  | >6.25 µg/mL
O=C(O)C(=NNc1ccc(C(=O)N/N=C/c2ccc([N+](=O)[O-])o2)cc1)C(=O)O |  |  | H37Rv | 6.25 µg/mL |  | inhibition |  | 0%
CCCCCCCCOC(=O)c1cnccn1 |  |  | KK11-20 |  |  | MIC |  | 100 µg/mL
CC(=O)OC/C=C(\C)CCC=C(C)C |  |  | H37Rv | 6.25 µg/mL | resazurin | inhibition |  | 26%
COc1cccc2c(N/N=C/c3ccccc3O)cc(C)nc12 |  |  | H37Rv |  |  | MIC |  | 10 µg/mL
CCCCCCCCS(=O)(=O)CC(N)=O |  |  | 1H1337 |  |  | MIC |  | ≤6.25 µg/mL
NNC(=O)c1ccncc1 | 21 d |  | 331/88 |  |  | MIC |  | 1 µM
O=S(=O)(SC1=NCCN1)c1ccccc1 |  |  | H37Rv |  | BACTEC | MIC bound |  | >6.25 µg/mL
Cc1ccc(C(=S)Nc2ccc(C3CCCCC3)cc2)cc1 |  |  | H37Rv |  |  | MIC |  | 31 µM
C=C1CCC2C(C)(C)CCC[C@@]2(C)[C@@H]1CC/C(C)=C/CO |  |  | H37Rv | 6.25 µg/mL | resazurin | inhibition |  | 65%
COC(C(=O)[C@@H](O)[C@@H](C)O)C1Cc2cc3cc(OC4CC(OC(C)=O)C(OC5CC(O)C(OC)C(C)O5)C(C)O4)cc(O)c3c(O)c2C(=O)[C@H]1OC1CC(OC2CC(OC3CC(C)(O)C(O)C(C)O3)C(O)C(C)O2)C(O)C(C)O1 |  |  | H37Rv |  | BACTEC | MIC |  | ≥12.5 µg/mL
O=c1oc2cc(Cl)ccc2c(=O)n1-c1ccccc1 |  |  | CNCTC MY331/88 |  |  | MIC |  | 16 µM
Cc1c(N2CC3CCCNC3C2)c(F)cc2c(=O)c(C(=O)O)cn([C@@H]3C[C@@H]3F)c12 |  |  | 41 (RFP-susceptible) |  |  | MIC |  | <0.003 µg/mL
NC(=O)c1cnccn1 |  |  | CDC89 niacin-positive |  |  | MIC |  | ≤4 µg/mL
CO/N=C1\CCCN(c2nc(=O)c3cc(C(F)(F)F)cc([N+](=O)[O-])c3s2)CC1 |  |  | 16892 clinical isolate |  | resazurin | MIC90 |  | 0.031 µg/mL
CC(C)CC1C(=O)N[C@H](CC(C)C)C(=O)N[C@@H](C(C)C)C(=O)N(C)C(CC(N)=O)C(=O)N[C@H](CCCN)C(=O)N[C@@H](Cc2c[nH]c3ccccc23)C(=O)N1C |  |  | H37Rv |  | broth dilution / resazurin | MIC100 |  | >80 µM
COc1ccc(NC2=CC(=O)C(=O)c3ccccc32)nn1 |  |  | H37Rv |  |  | MIC bound |  | >6.25 µg/mL
CC(=S)N1CCCC[C@H]1[C@@H](O)c1cc(C(F)(F)F)nc2c(C(F)(F)F)cccc12 |  |  |  |  |  | MIC |  | >128 µM
N#CCC(=O)N/N=C/c1ccc([N+](=O)[O-])o1 |  |  | H37Rv |  | BACTEC | MIC bound |  | >12.5 µg/mL
Cc1cn([C@@H]2C[C@H](O)[C@@H](CNC(=S)Nc3ccc(Cl)c(C(F)(F)F)c3)O2)c(=O)[nH]c1=O |  |  | H37Rv | 6.25 µg/mL | resazurin | inhibition |  | 34%